Anti-infective test results gathered from many reports (values: NIAID ChemDB through PubChem).

Common to all: counter-tests on host proteins

ICn: concentration for n% inhibition. Lines come from different laboratories, so protocols vary. Inhibition is in % at the dose shown (toxicity tests: loss of growth or viability). Blank or dashed fields: not listed here.

{"SMILES": "CN[C@H]1[C@@H](O[C@@H]2[C@@H](O[C@H]3[C@H](O)[C@@H](O)[C@H](N=C(N)N)[C@@H](O)[C@@H]3N=C(N)N)O[C@H](C)[C@@]2(O)C=O)O[C@H](CO)[C@@H](O)[C@@H]1O", "endpoint": "IC50", "protein": "Canavalia spp", "result": "13.23 µM"}
{"SMILES": "N#CCN(CCn1cnc2c(=O)[nH]c(N)nc21)CCP(=O)(O)O", "agent": "Human", "method": "absorbance", "endpoint": "Ki", "protein": "Hypoxanthine-guanine phosphoribosyltransferase", "result": "35 µM"}
{"SMILES": "CCCCCCCC/C=C/CCCCCCCCCCCCCC", "agent": "Rattus norvegicus", "endpoint": "IC50", "protein": "DNA polymerase beta", "result": "5 µM"}
{"SMILES": "O=C(Cn1c(-c2nccs2)nc2ccccc21)Nc1ccc(Cl)cc1", "agent": "Human", "method": "fluorescence / absorbance", "endpoint": "inhibition", "protein": "IMPDH2", "tested at": "5 µM", "result": "≤10%"}
{"SMILES": "CC(C)=CCN1Cc2cccc3[nH]c(=S)n(c23)C[C@@H]1C", "agent": "Human", "endpoint": "IC50", "protein": "DNA polymerase beta", "result": ">175 µM"}
{"SMILES": "O=C(Cn1c(-c2nccs2)nc2ccccc21)Nc1ccc(Cl)c(Cl)c1", "agent": "Human", "method": "fluorescence / absorbance", "endpoint": "IC50", "protein": "IMPDH2", "result": "≥8 µM"}
{"SMILES": "Cc1[nH]c2ccccc2c(=O)c1-c1ccc(Oc2ccc(OC(F)(F)F)cc2)cc1", "method": "absorbance", "endpoint": "IC50", "protein": "HFF", "result": "0.818 µM"}
{"SMILES": "O=C(Cn1c(-c2cscn2)nc2ccccc21)Nc1ccc(Cl)cc1", "agent": "Human", "method": "fluorescence / absorbance", "endpoint": "inhibition", "protein": "IMPDH2", "tested at": "5 µM", "result": "≤20%"}
{"SMILES": "CC(C)(O/N=C(\\C(=O)NCC(O)O)c1csc(N)n1)C(=O)O", "agent": "Bos primigenius", "endpoint": "IC50", "protein": "DNA polymerase alpha", "result": "0.01 µM"}
{"SMILES": "[N-]=[N+]=Nc1ccc(C(=O)CSc2nc3c(ncn3[C@H]3C[C@H](O)[C@@H](COP(=O)(O)OP(=O)(O)OP(=O)(O)O)O3)c3nccn23)cc1", "agent": "Escherichia coli", "method": "radiometric", "endpoint": "Ki", "protein": "DNA polymerase I", "result": "92 µM"}
{"SMILES": "Nc1nc2c(ncn2CCOCCP(=O)(O)O)c(=O)[nH]1", "agent": "Human", "method": "absorbance", "endpoint": "Ki", "protein": "Hypoxanthine-guanine phosphoribosyltransferase", "result": "1 µM"}
{"SMILES": "Nc1nc2c(ncn2CC(CO)OCP(=O)(O)O)c(=O)[nH]1", "agent": "Human", "method": "absorbance", "endpoint": "Ki", "protein": "Hypoxanthine-guanine phosphoribosyltransferase", "result": "5.9 µM"}
{"SMILES": "O=c1[nH]cnc2c1ncn2[C@@H]1CNC[C@@H]1OCP(=O)(O)O", "agent": "Human", "method": "absorbance", "endpoint": "Ki", "protein": "Hypoxanthine-guanine phosphoribosyltransferase", "result": "72 µM"}
{"SMILES": "COc1c(-c2ccc3cc(NS(C)(=O)=O)ccc3c2)cc(-n2ccc(=O)[nH]c2=O)cc1C(C)(C)C", "endpoint": "IC50", "protein": "Human polymerase beta", "result": ">100 µM"}
{"SMILES": "Nc1nc2c(ncn2[C@@H]2CNC[C@H]2OCP(=O)(O)O)c(=O)[nH]1", "agent": "Human", "method": "absorbance", "endpoint": "Ki", "protein": "Hypoxanthine-guanine phosphoribosyltransferase", "result": "0.3 µM"}
{"SMILES": "Fc1ccc(N2CCCCC2)c(NC(=S)c2ccncc2)c1", "method": "kinase activity", "endpoint": "inhibition", "protein": "Flt3 (D835Y mutant)", "tested at": "10 µM", "result": "66%"}
{"SMILES": "COc1ccc(C2=C3c4cc(OC)c(OC)cc4C=CN3C3C(=O)Oc4cc(OS(=O)(=O)O)c(OC)cc4C23)cc1O", "agent": "Molluscum contagiosum virus", "endpoint": "IC50", "protein": "Topoisomerase", "result": ">170 µM"}
{"SMILES": "Nc1nc2c(ncn2[C@@H]2CNC[C@@H]2OCP(=O)(O)O)c(=O)[nH]1", "agent": "Human", "method": "absorbance", "endpoint": "Ki", "protein": "Hypoxanthine-guanine phosphoribosyltransferase", "result": "29 µM"}

Repeating the final 2 entries:

SMILES,agent,method,endpoint,protein,tested at,result
COc1ccc(C2=C3c4cc(OC)c(OC)cc4C=CN3C3C(=O)Oc4cc(OS(=O)(=O)O)c(OC)cc4C23)cc1O,Molluscum contagiosum virus,,IC50,Topoisomerase,,>170 µM
Nc1nc2c(ncn2[C@@H]2CNC[C@@H]2OCP(=O)(O)O)c(=O)[nH]1,Human,absorbance,Ki,Hypoxanthine-guanine phosphoribosyltransferase,,29 µM